Measurements as given in patent publication US20230277680A1, “CONJUGATE OF A SINGLE DOMAIN ANTIBODY, A SAPONIN AND AN EFFECTOR MOLECULE, PHARMACEUTICAL COMPOSITION COMPRISING THE SAME, THERAPEUTIC USE OF SAID PHARMACEUTICAL COMPOSITION” (SAPREME TECHNOLOGIES B.V., priority 2020, published 2023).

Test system: A431 tumor
Assay: A431 xenograph mouse tumor model, tumor volume
Type: in vivo
Conditions: second experiment: 25 mg/kg cetuximab-(Cys-L-SO1861)^4 i.p. + 0.03 mg/kg toxin conjugate i.v., day 9, 14, then weekly; cetuximab = positive control
Protocol: The conjugate was tested in a A431 (EGFR^++) xenograph mouse tumor model for EGFR tumor targeted cell killing as illustrated in FIG. 1J. Dosings started at day 12 when tumors reached ˜150 mm^3 in size and tumor volume was determined after every dosing.
Female Balb/c nude mice were injected subcutaneously with a suspension of human A431 tumor cells. Under the skin of the mice, a human epidermal carcinoma developed in the xenograft animal tumor model. After injection of the tumor cells, the xenograft tumor was allowed to develop to a size of approximately 170-180 mm^3. The A431 tumor cells have the following characteristics: high EGFR expressors, medium CD71 expressors, low HER2 expressors.
In Table 8A, the results of the treatment of control mice and tumor-bearing mice are presented. Tumor-bearing mice were treated with the indicated antibodies directed to either human Her2/neu, human EGFR, or human CD71, which are cell-surface receptors on the xenograft tumor. Cetuximab was covalently conjugated with saponin SO1861. […] The dose of the ADCs was sub-optimal in the tumor model. That is to say, from previous experiments, it was established at which sub-optimal dose of the ADCs no tumor-regression or arrest of tumor growth would be observable.
The 2 target 2-components system (2T2C) is the combination treatment of mAb1-SO1861 and mAb2-protein toxin, (FIG. 1B-D).

## Cetuximab: monoclonal antibody recognizing and binding human EGFR
  tumor response (in words): only tumor growth inhibition, but no regression
